Measured values: US20230158104A1, “COMPOUNDS FOR USE IN AUTOIMMUNE CONDITIONS” (priority 2020, published 2023)

Test system: COVID-19
Format: in vivo, human
Conditions: individual patients, PLD 1.5 mg×3
Description: All patients received the following prophylactic medications 20-30 minutes before the infusion of plitidepsin: • Diphenhydramine hydrochloride 25 mg iv or equivalent. • Ranitidine 50 mg iv or equivalent. • Dexamethasone 6.6 mg intravenous. • Ondansetron 8 mg i.v. in slow infusion of 15 minutes or equivalent.
Patients included in the study will receive treatment for 3 days.

## (−)-(3S,6R,7S,10R,11S,15S,17S,20S,25aS)-11-hydroxy-3-(4-methoxybenzyl)-2,6,17-trimethyl-15-(1-methylethyl)-7-[[(2R)-4-methyl-2-[methyl[[(2S)-1-(2-oxopropanoyl)pyrrolidin-2-yl]carbonyl]amino]pentanoyl]amino]-10-[(1S)-1-methylpropyl]-20-(2-methylpropyl)tetradecahydro-15H-pyrrolo[2,1-f]-[1,15,4,7,10,20]dioxatetrazacyclotricosine-1,4,8,13,16,18,21(17H)-heptone [PLD]
  Hospital discharge by day: ≤ 7 days
  clinical outcome: Acute clinical improvement
